{"source": "PubChem BioAssay AID1259414 – Drosophila RNAi Screening Center – 2018", "assay": "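Host factors increasing or decreasing Wolbachia levels in cultured fly cells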 (primary screen)", "cell system": "Drosophila JW18 cells infected with Wolbachia", "reagent": "long dsRNA against Drosophila genes, 0.25 µg dsRNA per well of a 384-well plate", "time to read-out": "5 days", "conditions": "cells persistently infected with Wolbachia before knock-down; no added drug", "measured": "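Automated imaging of bacterial rRNA staining divided by host cell count, reported as plate-normalised robust z-score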", "scale": "Wolbachia per cell robust z: higher = more Wolbachia per host cell than the plate typical", "call rule": "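Hit when robust z is 1.5 or more, or -1.5 or less, in at least two of three replicates; excludes dsRNAs with several or no targets, genes not expressed in JW18 and well A1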", "note": "In all, the deposit lists about 24,000 reagents; shown is a random part of those with a known target gene and a result. Over the whole deposit, about 1,210 (5%) are marked active. 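Inactive calls also include excluded dsRNAs with several or no targets, genes unexpressed in JW18, and well A1, regardless of score.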 The numbers tell different reagents against one gene apart."}
{"Gene":"CG18549","reagent no.":1,"Wolbachia per cell robust z, rep 1":0.676,"Wolbachia per cell robust z, rep 2":0.932,"Wolbachia per cell robust z, rep 3":0.77,"call":"inactive"}
{"Gene":"CG18549","reagent no.":2,"Wolbachia per cell robust z, rep 1":0.402,"Wolbachia per cell robust z, rep 2":0.362,"Wolbachia per cell robust z, rep 3":0.388,"call":"inactive"}
{"Gene":"CG14891","reagent no.":1,"Wolbachia per cell robust z, rep 1":-7.18,"Wolbachia per cell robust z, rep 2":-4.97,"Wolbachia per cell robust z, rep 3":0.129,"call":"active"}
{"Gene":"Gr98a (Gustatory receptor 98a)","reagent no.":1,"Wolbachia per cell robust z, rep 1":0.417,"Wolbachia per cell robust z, rep 2":0.782,"Wolbachia per cell robust z, rep 3":0.73,"call":"inactive"}
{"Gene":"Drs (Drosomycin)","reagent no.":1,"Wolbachia per cell robust z, rep 1":-4.82,"Wolbachia per cell robust z, rep 2":1.17,"Wolbachia per cell robust z, rep 3":0.677,"call":"inactive"}
{"Gene":"Drs (Drosomycin)","reagent no.":2,"Wolbachia per cell robust z, rep 1":0.214,"Wolbachia per cell robust z, rep 2":0.532,"Wolbachia per cell robust z, rep 3":-1.16,"call":"inactive"}
{"Gene":"Drs (Drosomycin)","reagent no.":3,"Wolbachia per cell robust z, rep 1":0.0366,"Wolbachia per cell robust z, rep 2":1.27,"Wolbachia per cell robust z, rep 3":0.839,"call":"inactive"}
{"Gene":"pb (proboscipedia)","reagent no.":1,"Wolbachia per cell robust z, rep 1":-5.25,"Wolbachia per cell robust z, rep 2":-3.88,"Wolbachia per cell robust z, rep 3":-2.34,"call":"inactive"}
{"Gene":"pb (proboscipedia)","reagent no.":2,"Wolbachia per cell robust z, rep 1":1.09,"Wolbachia per cell robust z, rep 2":-1.6,"Wolbachia per cell robust z, rep 3":0.484,"call":"inactive"}
{"Gene":"pb (proboscipedia)","reagent no.":3,"Wolbachia per cell robust z, rep 1":0.907,"Wolbachia per cell robust z, rep 2":-0.0547,"Wolbachia per cell robust z, rep 3":0.443,"call":"inactive"}
{"Gene":"CG33777","reagent no.":1,"Wolbachia per cell robust z, rep 1":-0.358,"Wolbachia per cell robust z, rep 2":1.24,"Wolbachia per cell robust z, rep 3":-3.74,"call":"inactive"}
{"Gene":"CG42811","reagent no.":1,"Wolbachia per cell robust z, rep 1":0.799,"Wolbachia per cell robust z, rep 2":-0.531,"Wolbachia per cell robust z, rep 3":-1.26,"call":"inactive"}
{"Gene":"ida (imaginal discs arrested)","reagent no.":1,"Wolbachia per cell robust z, rep 1":0.173,"Wolbachia per cell robust z, rep 2":0.053,"Wolbachia per cell robust z, rep 3":1.7,"call":"inactive"}
{"Gene":"CG6209","reagent no.":1,"Wolbachia per cell robust z, rep 1":-3.29,"Wolbachia per cell robust z, rep 2":-0.549,"Wolbachia per cell robust z, rep 3":0.444,"call":"inactive"}
{"Gene":"CG6209","reagent no.":2,"Wolbachia per cell robust z, rep 1":-1.12,"Wolbachia per cell robust z, rep 2":0.235,"Wolbachia per cell robust z, rep 3":-0.495,"call":"inactive"}
{"Gene":"CG15147","reagent no.":1,"Wolbachia per cell robust z, rep 1":1.8,"Wolbachia per cell robust z, rep 2":0.231,"Wolbachia per cell robust z, rep 3":0.117,"call":"inactive"}
{"Gene":"CG15147","reagent no.":2,"Wolbachia per cell robust z, rep 1":1.82,"Wolbachia per cell robust z, rep 2":-1.82,"Wolbachia per cell robust z, rep 3":1.69,"call":"inactive"}
{"Gene":"CG15147","reagent no.":3,"Wolbachia per cell robust z, rep 1":-0.0132,"Wolbachia per cell robust z, rep 2":0.501,"Wolbachia per cell robust z, rep 3":0.59,"call":"inactive"}
{"Gene":"Rpn6 (Regulatory particle non-ATPase 6)","reagent no.":1,"Wolbachia per cell robust z, rep 1":-0.428,"Wolbachia per cell robust z, rep 2":0.493,"Wolbachia per cell robust z, rep 3":-0.295,"call":"inactive"}
{"Gene":"goe (gone early)","reagent no.":1,"Wolbachia per cell robust z, rep 1":-1.83,"Wolbachia per cell robust z, rep 2":-1.91,"Wolbachia per cell robust z, rep 3":-0.153,"call":"active"}
{"Gene":"goe (gone early)","reagent no.":2,"Wolbachia per cell robust z, rep 1":0.829,"Wolbachia per cell robust z, rep 2":1.16,"Wolbachia per cell robust z, rep 3":1.12,"call":"inactive"}
{"Gene":"cpo (couch potato)","reagent no.":1,"Wolbachia per cell robust z, rep 1":-0.763,"Wolbachia per cell robust z, rep 2":-0.722,"Wolbachia per cell robust z, rep 3":-0.438,"call":"inactive"}
{"Gene":"cpo (couch potato)","reagent no.":2,"Wolbachia per cell robust z, rep 1":-1.96,"Wolbachia per cell robust z, rep 2":-1.34,"Wolbachia per cell robust z, rep 3":-5.09,"call":"inactive"}
{"Gene":"cpo (couch potato)","reagent no.":3,"Wolbachia per cell robust z, rep 1":-1.09,"Wolbachia per cell robust z, rep 2":-1.6,"Wolbachia per cell robust z, rep 3":-0.0901,"call":"inactive"}
{"Gene":"cpo (couch potato)","reagent no.":4,"Wolbachia per cell robust z, rep 1":-1.45,"Wolbachia per cell robust z, rep 2":-1.51,"Wolbachia per cell robust z, rep 3":-0.466,"call":"inactive"}
{"Gene":"cpo (couch potato)","reagent no.":5,"Wolbachia per cell robust z, rep 1":2.17,"Wolbachia per cell robust z, rep 2":1.01,"Wolbachia per cell robust z, rep 3":1.63,"call":"inactive"}
